Measured values published in paper PMC11432330, “Novel Drug-like HsrA Inhibitors Exhibit Potent Narrow-Spectrum Antimicrobial Activities against Helicobacter pylori” (International Journal of Molecular Sciences, 2024).
Construct, isoform or probe ends are uncertain for at least one entry. A weaker result is weaker than the reference pair of the same experiment. Tags and fusion partners may be left off the protein sequences shown. At least one verdict rests on a figure or table, not on a statement of the authors.

Tested on: T1, CosR (Campylobacter jejuni ATCC 33560)
T1 sequence (looked up): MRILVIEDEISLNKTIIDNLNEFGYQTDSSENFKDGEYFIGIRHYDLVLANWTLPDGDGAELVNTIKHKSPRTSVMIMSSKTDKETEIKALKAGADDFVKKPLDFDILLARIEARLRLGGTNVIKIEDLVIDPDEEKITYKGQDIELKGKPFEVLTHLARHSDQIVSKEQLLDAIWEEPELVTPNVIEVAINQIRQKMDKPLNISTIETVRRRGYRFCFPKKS
Test: EMSA
Settings: EMSA: 10 mM bis-Tris pH 7.5, 40 mM KCl, 100 mg/L BSA, 1 mM DTT, 5% glycerol, room temperature 20 min, 6% native gel, SYBR Safe, recombinant protein, residues 1-223, protein details: His-tag (pET-28a), probe letters rebuilt from the primers and the genome

GTAACATAAGTATTGTGATGTTTTCCATGATGATAGCTAAAAGTTTCAGCACTCAAAAAATCACCAAAAGCATTGGTATCATAAGGTAATTTTCTTAATTCAAACATAATTTCTCCTTTATTTTTAGTTTGATATTGAAAATATTACCATAATAATATTAAAAAGAGTAAAAATATCTTAAAAGCTTAGTGGGTAAAATTTCTATTTATTTAACCTAAATAAAATAAGATACATTTATAATATATTTTAATAATAATTTAAATATATATAAAAAATTATATTTTTTTGAAATATTTTTACAAAAAATATCTATTTGTTGATTTTTAATAATTACAATTAATTTGCAACTAAAAATTATTCATAAGGAGGAAAATATGAAAAAAGTTGTACTAATCTCAGCATTACTAGGTGCTTTCGCAG (double strand) [PsodB (sodB promoter)]
binding result (700 nM CosR, 120 ng DNA): binds | binding result (ligand V, 0.1-2 mM): binds more weakly
